From US20230014151A1, “COMBINATION ANTIVIRAL THERAPY FOR MEASLES” (The Trustees of Columbia University in the City of New York, priority 2019, published 2023) come the findings set out here.

To fix the notation:
T1: measles virus (MeV) fusion protein F, wild type, expressed on cells (measles virus), Q786F3
T1 chain: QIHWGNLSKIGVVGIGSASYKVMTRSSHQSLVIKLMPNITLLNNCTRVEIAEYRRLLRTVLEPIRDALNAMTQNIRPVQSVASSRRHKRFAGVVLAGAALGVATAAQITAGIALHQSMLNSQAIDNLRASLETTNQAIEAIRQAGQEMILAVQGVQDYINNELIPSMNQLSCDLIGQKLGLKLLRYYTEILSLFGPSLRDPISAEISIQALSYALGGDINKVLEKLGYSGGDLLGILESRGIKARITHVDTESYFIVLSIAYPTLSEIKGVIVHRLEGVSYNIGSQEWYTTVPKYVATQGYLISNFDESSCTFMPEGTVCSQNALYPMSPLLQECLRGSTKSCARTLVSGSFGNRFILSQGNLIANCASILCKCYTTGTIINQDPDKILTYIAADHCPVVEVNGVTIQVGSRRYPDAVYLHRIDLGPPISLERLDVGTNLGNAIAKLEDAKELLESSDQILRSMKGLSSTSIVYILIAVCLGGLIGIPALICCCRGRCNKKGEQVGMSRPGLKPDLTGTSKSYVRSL

This experiment addresses T1, measles virus (MeV) fusion protein F, …. The experiment can be described thus: cell-based or functional assay.
The molecule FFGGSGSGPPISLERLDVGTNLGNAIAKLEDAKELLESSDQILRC (modifications not checked) [[FIP-HRC450-485] (no GSGSG) peg24 chol] gave an IC50, beta-galactosidase complementation-based fusion assay, CD150 target cells of 480 nM and an IC90, beta-galactosidase complementation-based fusion assay, CD150 target cells greater than 900 nM.

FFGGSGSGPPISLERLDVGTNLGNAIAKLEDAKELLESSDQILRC (modifications not checked) [FIP-HRC450-485-chol (no GSGSG)] yielded an IC50, beta-galactosidase complementation-based fusion assay, CD150 target cells of 70.8 nM. In turn, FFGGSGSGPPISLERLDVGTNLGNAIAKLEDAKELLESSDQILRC (modifications not checked) [FIP-HRC450-485 (no GSGSG), Monomer N-Maleimide] yielded an IC50, beta-galactosidase complementation-based fusion assay, CD150 target cells greater than 1000 nM and an IC90, beta-galactosidase complementation-based fusion assay, CD150 target cells greater than 1000 nM.

Molecule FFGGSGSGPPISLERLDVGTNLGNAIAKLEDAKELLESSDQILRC (modifications not checked) [[FIP-HRC450-485]2-peg11 (no GSGSG)] returned an IC50, beta-galactosidase complementation-based fusion assay, CD150 target cells of 516 nM and an IC90, beta-galactosidase complementation-based fusion assay, CD150 target cells greater than 1000 nM. On the same counts, the results for FFGC (modifications not checked) [FIP-peg4-chol (no GSGSG)] are greater than 400 nM and greater than 900 nM. FFGC (modifications not checked) [[FIP]2-peg11 (no GSGSG)] returned an IC50, beta-galactosidase complementation-based fusion assay, CD150 target cells greater than 600 nM and an IC90, beta-galactosidase complementation-based fusion assay, CD150 target cells greater than 1000 nM.

On to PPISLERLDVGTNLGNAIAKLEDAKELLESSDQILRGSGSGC (modifications not checked) [[HRC450-485-peg4]2-chol], for which the IC50, beta-galactosidase complementation-based fusion assay, CD150 target cells was found to be 100 nM.

Turning to FFGC (modifications not checked) [FIP (no GSGSG), Monomer N-Maleimide], the IC50, beta-galactosidase complementation-based fusion assay, CD150 target cells was greater than 1000 nM and the IC90, beta-galactosidase complementation-based fusion assay, CD150 target cells was greater than 1000 nM. FFGC (modifications not checked) [[FIP-peg4]2-chol (no GSGSG)] had an IC50, beta-galactosidase complementation-based fusion assay, CD150 target cells greater than 700 nM and an IC90, beta-galactosidase complementation-based fusion assay, CD150 target cells greater than 1000 nM.

Turning to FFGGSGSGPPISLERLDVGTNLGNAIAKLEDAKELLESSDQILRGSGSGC (modifications not checked) [[FIP-HRC450-485] peg24 chol], the IC90, beta-galactosidase complementation-based fusion assay, CD150 target cells is greater than 900 nM. In turn, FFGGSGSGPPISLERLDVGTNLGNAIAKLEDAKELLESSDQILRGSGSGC (modifications not checked) [FIP-HRC450-485, Monomer N-Maleimide] registered an IC50, beta-galactosidase complementation-based fusion assay, CD150 target cells greater than 1000 nM and an IC90, beta-galactosidase complementation-based fusion assay, CD150 target cells greater than 1000 nM.

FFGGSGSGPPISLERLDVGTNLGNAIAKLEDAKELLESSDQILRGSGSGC (modifications not checked) [FIP-HRC450-485-peg4-chol] displayed an IC90, beta-galactosidase complementation-based fusion assay, CD150 target cells greater than 700 nM. As to FFGGSGSGC (modifications not checked) [[FIP]2-peg11], the IC50, beta-galactosidase complementation-based fusion assay, CD150 target cells is greater than 1000 nM and the IC90, beta-galactosidase complementation-based fusion assay, CD150 target cells was greater than 1000 nM. In turn, FFGGSGSGC (modifications not checked) [[FIP-peg4]2-chol] registered an IC50, beta-galactosidase complementation-based fusion assay, CD150 target cells of 510 nM. On to FFGC (modifications not checked) [FIP-chol (no GSGSG)], for which the IC50, beta-galactosidase complementation-based fusion assay, CD150 target cells was greater than 1000 nM and the IC90, beta-galactosidase complementation-based fusion assay, CD150 target cells was greater than 1000 nM.
